# Results published in PubChem BioAssay AID1159583 (ICCB-Longwood Screening Facility, Harvard Medical School, 2016).
# The entries are a selection whose mix differs from that of the whole data set. Calls of active or inactive are those of the source. No stated cut-off is given here; in the data, active means fluorescence inhibition mostly above about 23% (no sharp cut-off); inactive means mostly below about 17%.
# Assay: hypoxia reporter signal reduction in M. tuberculosis – fluorescence, absorbance growth readout, primary screen (AID 1159583)
# Details: M. tuberculosis hypoxia-regulated fluorescent reporter, active compounds read high, concentration not given here
row,SMILES,fluorescence inhibition
1,O=[N+]([O-])c1cc([N+](=O)[O-])c(Nc2cccnc2)c([N+](=O)[O-])c1,inactive: 19.7%
2,O=[N+]([O-])c1ccc(Nc2ccc(Oc3ccc([N+](=O)[O-])cc3[N+](=O)[O-])cc2)c([N+](=O)[O-])c1,inactive: 0.999%
3,CP(=O)(Nc1ccccc1Br)Oc1ccccc1 (configuration not stated),inactive: -2.41%
4,COc1ccccc1OP(C)(=O)Nc1ccccc1 (configuration not stated),inactive: 12.1%
5,Cc1cc(SC(NC=O)C(Cl)(Cl)Cl)ncn1 (configuration not stated),inactive: 11.6%
6,O=P(Nc1ccccn1)(c1cccc2ccccc12)c1cccc2ccccc12,inactive: 7.23%
7,CCOC(=O)Nc1cccc([As](=O)(O)O)c1,inactive: 4.07%
8,Cc1cc(SC(NC(=O)c2ccccc2)C(Cl)(Cl)Cl)nc(C(C)C)n1 (configuration not stated),inactive: 0.17%
9,COc1ccc(NC(=NP(=O)(N2CCOCC2)N2CCOCC2)N2CCOCC2)cc1,inactive: -8.47%
10,CCCCOc1ccc(C(=O)NCC2(N3CCCCC3)CCCCC2)cc1OC,inactive: 6.14%
11,CC1CCNP(=O)(N(CCCl)CCCl)O1 (configuration not stated),inactive: 10.7%
12,CP(=O)(Nc1ccccn1)Oc1ccc(Cl)cc1 (configuration not stated),inactive: 3.17%
13,CCC(C)N(CC(C)C)C(=S)SC(NC(C)=O)C(Cl)(Cl)Cl (configuration not stated),inactive: 4.51%
14,O=[N+]([O-])c1cc([N+](=O)[O-])c(O)c([N+](=O)[O-])c1.c1ccc(Oc2ccncc2)cc1,inactive: 6.56%
15,CCOC(=O)c1ccc(NP(C)(=O)Oc2ccc(OC)cc2)cc1 (configuration not stated),inactive: 9.28%
16,CCOC(=O)c1ccc(NC(=O)C(C)(CCl)SC)cc1 (configuration not stated),inactive: 8.31%
17,O=C(OC1CN2CCC1CC2)c1cccc([N+](=O)[O-])c1 (configuration not stated),inactive: 16.2%
18,Cc1cc(C)cc(OP(C)(=O)Nc2ccc(SC(F)(F)F)cc2)c1 (configuration not stated),inactive: 13.3%
19,O=C(Nc1ccncc1[N+](=O)[O-])c1ccc([N+](=O)[O-])cc1[N+](=O)[O-],inactive: 13.4%
20,CP(=O)(NC(=O)Nc1ccccc1)Oc1ccccc1 (configuration not stated),inactive: 11.3%
21,O=C(COc1ccccc1)OC1CN2CCC1CC2 (configuration not stated),inactive: -6.01%
22,CCc1ccc(OP(C)(=O)N2CCN(c3ccc([N+](=O)[O-])cc3)CC2)cc1 (configuration not stated),inactive: 5.59%
23,CC1OP(=O)(Oc2ccccc2)C(O)C(O)C1N=[N+]=[N-] (configuration not stated),inactive: -3.77%
24,CP(=O)(Oc1ccccc1)OC(c1ccccc1)C(F)(F)F (configuration not stated),inactive: 15.5%
25,COP1(=S)c2c(C)nn(CCC#N)c2N=C(c2ccc(F)cc2)N1C (configuration not stated),inactive: 12.3%
26,CP(=O)(Nc1ccc(SC(F)(F)F)cc1)Oc1ccc(Cl)cc1 (configuration not stated),inactive: -0.746%
27,Cc1cccc(C)c1OP(C)(=O)Nc1ccc(SC(F)(F)F)cc1 (configuration not stated),inactive: 2.58%
